Several values for one entry are separate records, joined by “and”; a condition that tells them apart may be missing. Identical values can stand only once.
Test system: SARS-CoV-2 viral genome
Assay: Mutagenic effect: deep sequencing of viral RNA after the antiviral assay
Type: cell-based
Settings: 5 μM; for Number of Mutations Detected: replicates 1 and 2

CC(C)C(=O)OC[C@H]1O[C@@H](n2ccc(NO)nc2=O)C(O)C1O (some centres unmarked)
Mean Number of Mutations Detected (Frequency Threshold >0.1%): 2821 | Number of Mutations Detected (Frequency Threshold >0.1%): 2818 and 2824 | Mean Number of Mutations Detected (Frequency Threshold >0.2%): 208 | Number of Mutations Detected (Frequency Threshold >0.2%): 231 and 185 | Mean Number of Mutations Detected (Frequency Threshold >0.5%): 35 | Number of Mutations Detected (Frequency Threshold >0.5%): 36 and 34 | Mean Number of Mutations Detected (Frequency Threshold >1%): 21.5 | Number of Mutations Detected (Frequency Threshold >1%): 24 and 19

— patent US20230364121A1 (priority 2020, published 2023)
